Results of unrelated studies side by side (data: NIAID ChemDB).

Common to all: tests in culture; species: Hepatitis C virus; measure: EC50

An empty or dashed field is not shown. a–b is a range or a potency band. Neighbouring rows are from separate reports. ECn: concentration that inhibits the pathogen or its effect by n%.

compound	strain	read by	conditions	value
NC(=S)c1cn([C@@H]2O[C@H](CO)[C@@H](O)[C@H]2O)c2nc[nH]c(=O)c12	-	replicon	-	25 µM
CCN1CC[C@@](NC(=O)c2ccc3c(C4CCCCC4)c(-c4ccccn4)n(C)c3c2)(C(=O)Nc2ccc(/C=C/C(=O)O)cc2)C1	-	replicon	genotype 1b	0.052 µM
NC(=O)c1ncn([C@@H]2O[C@H](CO)[C@@H](O)[C@H]2O)n1	-	-	-	12–40 µM
C[C@@]1(O)[C@H](O)[C@@H](CO)O[C@H]1n1ccc2c(N)ncnc21	-	PCR	-	0.3 µM
CN1CCCC(NC(=O)c2ccc3c(C4CCCCC4)c(-c4ccccn4)n(C)c3c2)(C(=O)Nc2ccc(/C=C/C(=O)O)cc2)C1	-	replicon	genotype 1b	0.14 µM
COc1cc([C@@H]2Oc3cc([C@H]4Oc5cc(O)cc(O)c5C(=O)[C@@H]4O)ccc3O[C@H]2CO)ccc1O	1b	-	-	24.5 µM
CNc1ncnc2c1c(C(=N)N)cn2[C@@H]1O[C@H](CO)[C@@H](O)[C@H]1O	-	replicon	-	0.6 µM
O1[As]2O[As]3O[As]1O[As](O2)O3	Strain O genotype 1b	PCR	-	0.27 µM
Nc1ncnc2c1ncn2[C@@H]1O[C@H](CO)C[C@H]1O	-	-	-	46 µM
C=CC(=O)NCC(=O)N1C[C@H](Oc2nccc3ccc(Br)cc23)C[C@H]1C(=O)N[C@]1(C(=O)NS(=O)(=O)C2CC2)C[C@H]1C=C	1b C159S	luciferase	-	1.288 µM
Nc1ncnc2c1ncn2[C@@H]1O[C@H](CO)C[C@H]1O	-	luciferase	-	~100 µM
CCC[C@]1(CC(=O)O)OCCc2c1[nH]c1c(C)ccc(C#N)c21	1b BBT (WT)	replicon	-	12.2 µM
N#Cc1cn([C@@H]2O[C@H](CO)[C@@H](O)[C@H]2O)c2ncnc(NCCCN3CCOCC3)c12	-	replicon	-	4.5 µM
Cn1c(-c2ccccn2)c(C2CCCCC2)c2ccc(C(=O)N[C@@]3(C(=O)Nc4ccc(/C=C/C(=O)O)cc4)CCCNC3)cc21	-	replicon	genotype 1b	0.025 µM
CSc1ncnc2c1c(/C(N)=N/O)cn2[C@@H]1O[C@H](CO)[C@@H](O)[C@H]1O	-	replicon	-	1 µM
Cn1c(-c2ccccn2)c(C2CCCCC2)c2ccc(C(=O)NC3(C(=O)Nc4ccc(-c5cnc(N)nc5)cc4)CCC3)cc21	-	replicon	genotype 1b	0.218 µM
CN(C)c1ncnc2c1c(C#N)cn2[C@@H]1O[C@H](CO)[C@@H](O)[C@H]1O	-	replicon	-	3 µM
Cn1c(-c2ccccn2)c(C2CCCCC2)c2ccc(C(=O)NC3(C(=O)Nc4ccc(/C=C/C(=O)O)cc4)CCOCC3)cc21	-	replicon	genotype 1b	0.18 µM
C[C@@]1(O)[C@H](O)[C@@H](CO)O[C@H]1n1ccc2c(N)ncnc21	-	replicon	24 h	0.3 µM
CN(C)c1ncnc2c1ncn2[C@@H]1O[C@H](CO)[C@@H](O)[C@H]1O	-	replicon	-	7 µM
CCCCCCC(=O)CCCCCC/C=C/CC(O)C(O)C(N)(CO)C(=O)O	-	replicon	-	0.0058 µM
CN1CC[C@@](NC(=O)c2ccc3c(C4CCCCC4)c(-c4ccccn4)n(C)c3c2)(C(=O)Nc2ccc(/C=C/C(=O)O)cc2)C1	-	replicon	genotype 1b	0.037 µM
CC(C)(C)OC[C@H](NCC(=O)c1ccccc1)C(=O)Nc1ccc(C2SC(=Nc3cccc(F)c3)N(Cc3ccco3)C2=O)cc1	genotype 1	replicon	genotype 1b	>50 µM

For reference, 2 entries again:

| compound | strain | read by | conditions | value |
|---|---|---|---|---|
| CCC[C@]1(CC(=O)O)OCCc2c1[nH]c1c(C)ccc(C#N)c21 | 1b BBT (WT) | replicon | - | 12.2 µM |
| CN1CC[C@@](NC(=O)c2ccc3c(C4CCCCC4)c(-c4ccccn4)n(C)c3c2)(C(=O)Nc2ccc(/C=C/C(=O)O)cc2)C1 | - | replicon | genotype 1b | 0.037 µM |